Measured values published in patent publication US9206463B2, “Method of testing a disinfectant or antibiotic using phenanthridium derivatives” (Montana State University, priority 2006, dated 2015).

Legend:
[1] = test system: Streptococcus sobrinus; test: genomic DNA yield of live and dead cells after PMA or EMA treatment; type: cell-based; details: live cells, EMA 50 μM
[2] = test system: Serratia marcescens; test: genomic DNA yield of live cells after EMA treatment; details: EMA 50 μM
[3] = test system: Salmonella typhimurium; test: as above; details: EMA 50 μM
[4] = test system: Pseudomonas syringae; test: as above; details: EMA 50 μM
[5] = test system: Listeria monocytogenes; test: benzalkonium disinfection, loss of culturability by plate counts; type: cell-based; details: 30 minutes exposure
[6] = test system: Listeria monocytogenes; type: cell-based

Compound | loss of DNA due to EMA treatment of live cells [1] | loss of DNA due to EMA treatment of live cells [2] | loss of DNA due to EMA treatment of live cells [3] | loss of DNA due to EMA treatment of live cells [4] | culturability (colonies on plates) ([5]; 55 and 60 ppm benzalkonium) | BAC concentrations that increasingly reduced culturability ([5]; plate counts) | greatest qPCR signal reduction [6]
CC[n+]1c(-c2ccccc2)c2cc(N=[N+]=[N-])ccc2c2ccc(N)cc21.[Br-] [EMA] | significant loss of DNA | without any loss of DNA | without any loss of DNA | a certain loss of DNA |  |  | 
benzalkonium chloride [BAC] |  |  |  |  | No colonies | exceeding 30 ppm | around 17 PCR cycles
